Anti-infective test results gathered from many reports (values: NIAID ChemDB through PubChem).

Common to all: tests in culture; organism: Mycobacterium kansasii

Conditions beyond the fields shown may differ between rows. MIC50, MIC90 and the like: level of inhibition, or share of isolates inhibited. Blank or dashed fields: not listed here.

SMILES,strain,setting,method,endpoint,result
O=C(/C=C/c1ccccc1Br)c1cnccn1,Hauduroy,,absorbance,MIC,12.5 µg/mL
CC[C@@H](CO)NCCN[C@@H](CC)CO,P,,broth dilution,MIC,0.25 µg/mL
CNC(=O)Nc1ccc(S(=O)(=O)Nc2cc(C)on2)cc1,6509/96 clinical isolate,14 d,broth dilution / absorbance,MIC100,16 µM
O=C(Nc1ccc(Br)cc1)c1cc(Cl)ccc1OP(=O)(c1ccccc1)c1ccccc1,My 6509/96,14 d,,MIC,8 µM
NNC(=O)c1ccncc1,104 clinical isolates,,,MIC90,4 µg/mL
CC(C)(C)c1cnc(C(=O)/C=C/c2ccccc2Cl)cn1,Hauduroy,,absorbance,MIC,25 µg/mL
O=C1c2cc(Cl)ccc2OP(=O)(c2ccccc2)N1c1ccc(Cl)c(Cl)c1,My 235/80,21 d,,MIC,8 µM
CCCCNC(=O)Nc1ccc(S(=O)(=O)Nc2cc(C)on2)cc1,235/80,21 d,broth dilution / absorbance,MIC100,250 µM
CC(C)(C)c1cnc(C(=O)/C=C/c2ccc(Cl)cc2)cn1,Hauduroy,,absorbance,MIC,>50 µg/mL
CCNC(=O)Nc1ccc(S(=O)(=O)Nc2cc(C)on2)cc1,6509/96 clinical isolate,21 d,broth dilution / absorbance,MIC100,500 µM
O=C(N[C@H]([C@H](O)CNCc1cccc(I)c1)C(F)(F)c1ccccc1)OCc1ccccc1,ATCC 35775,,broth dilution,MIC,32 µg/mL
O=C(Nc1ccc(Cl)cc1)c1cc(Cl)ccc1OP(=O)(Oc1ccccc1)Oc1ccccc1,My 6509/96,14 d,,MIC,8 µM
NNC(=O)c1ccncc1,6509/96 clinical isolate,21 d,broth dilution / absorbance,MIC100,8 µM
CC(C)(C)c1cnc(C(=O)/C=C/c2ccc(Br)cc2)cn1,Hauduroy,,absorbance,MIC,12.5 µg/mL
O=C(Nc1ccc(Cl)c(Cl)c1)c1cc(Cl)ccc1OP(=O)(OCc1ccccc1)OCc1ccccc1,My 235/80,21 d,,MIC,62.5 µM
CC(C)=CCC/C(C)=C/CNCCNC1C2CC3CC(C2)CC1C3,ATCC 35775,,broth dilution,MIC,2 µg/mL
O=C(Nc1ccc(C(F)(F)F)cc1)c1cc(Cl)ccc1OP(=O)(c1ccccc1)c1ccccc1,My 235/80,7 d,,MIC,2 µM
CC(C)c1cnc(C(=O)/C=C/c2ccc(Br)cc2)cn1,Hauduroy,,absorbance,MIC,6.25 µg/mL
O=C(Nc1ccc(Cl)cc1)c1cc(Cl)ccc1OP(=O)(OCc1ccccc1)OCc1ccccc1,My 6509/96,14 d,,MIC,32 µM
CCCCCc1cnc(C(=O)/C=C/c2ccc(Br)cc2)cn1,Hauduroy,,absorbance,MIC,>50 µg/mL
O=C(Nc1ccc(C(F)(F)F)cc1)c1cc(Cl)ccc1OP(=O)(OCc1ccccc1)OCc1ccccc1,My 6509/96,21 d,,MIC,16 µM
Cc1cc(NS(=O)(=O)c2ccc(NC(=O)N3CCC3)cc2)no1,235/80,14 d,broth dilution / absorbance,MIC100,4 µM

Repeating the final 3 entries:

SMILES	strain	setting	method	endpoint	result
CCCCCc1cnc(C(=O)/C=C/c2ccc(Br)cc2)cn1	Hauduroy		absorbance	MIC	>50 µg/mL
O=C(Nc1ccc(C(F)(F)F)cc1)c1cc(Cl)ccc1OP(=O)(OCc1ccccc1)OCc1ccccc1	My 6509/96	21 d		MIC	16 µM
Cc1cc(NS(=O)(=O)c2ccc(NC(=O)N3CCC3)cc2)no1	235/80	14 d	broth dilution / absorbance	MIC100	4 µM